Pooled drug test results. Numbers come from NIAID ChemDB, via PubChem.

Shared fields: tests on isolated targets; agent: HIV-1; target: Protease; read-out: Ki

An empty or dashed field is not shown. Conditions beyond the fields shown may differ between rows.

compound	strain or isolate	mutations	method	value
CC[C@H](C)[C@@H](C=O)NC(=O)[C@H](CO)NC(=O)[C@H](Cc1ccc(O)cc1)NC(=O)[C@H](CCC(=O)O)NC(=O)[C@H](CC(C)C)NC(=O)[C@@H](N)CC(C)C	-	-	HPLC	0.013 µM
CC[C@H](C)[C@H](NC(=O)[C@@H](C[C@H](O)[C@H](CC1CCCCC1)NC(=O)CC(C)(C)C)C(C)C)C(=O)NCc1ccccn1	-	-	-	0.07 µM
CC(C)C[C@H](NC(=O)CCCCCCCCCCCCCCC(=O)N[C@@H](CC(N)=O)C(=O)N[C@@H](Cc1ccccc1)C(=O)O)C(=O)N[C@@H](CC(C)C)C(=O)N[C@@H](Cc1ccccc1)C(N)=O	-	-	-	0.37 µM
CCC(C)CNC(=O)OCCC(C)(C)CN(C[C@@H](O)[C@H](Cc1ccccc1)NC(=O)O[C@H]1CO[C@H]2OCC[C@H]21)S(=O)(=O)c1ccc2c(c1)OCO2	-	-	fluorescence	<0.001 µM
CCC(=O)O[C@@H](C/C=C(\C)C(=O)OC)C[C@H](OC(C)=O)[C@@H](CCCOC(=O)CC(C)C)OC(=O)CC(C)C	-	-	fluorescence	3.6 µM
CC(C)CN(C[C@@H](O)[C@H](Cc1ccccc1)NC(=O)O[C@H]1CO[C@H]2OCC[C@H]21)S(=O)(=O)c1ccc(C(=O)O)cc1	-	-	substrate cleavage / fluorescence	0.0000129 µM
COC(=O)[C@@H](NC(=O)[C@@H](NC(=O)[C@H](C)C[C@H](O)[C@H](Cc1ccccc1)NC(=O)[C@H](C)NC(=O)[C@H](C)NC(=O)OCc1ccccc1)C(C)C)C(C)C	-	-	HPLC	0.0007 µM
C=C(C)OC(=O)NCCCCCC(C)(C)CN(C[C@@H](O)[C@H](Cc1ccccc1)NC(=O)O[C@H]1CO[C@H]2OCC[C@H]21)S(=O)(=O)c1ccc2c(c1)OCO2	-	-	fluorescence	<0.001 µM
COc1ccc(S(=O)(=O)N(CC(C)C)C[C@@H](O)[C@H](Cc2ccccc2)NC(=O)OCO[C@H]2C[C@H]3OC[C@@]4(CNC(=O)O4)[C@H]3C2)cc1	-	-	substrate cleavage / fluorescence	0.00017 µM
CNC(=O)C1NC[C@H](Cc2ccccc2)N(CC(O)CN(CC2CCCC2)S(=O)(=O)c2ccc(OC)cc2)C1=O	-	-	-	0.6 µM
CCC(=O)O[C@@H](C/C=C(\C)C(=O)OC)C[C@@H](OC(C)=O)[C@@H](CCCOC(=O)CC(C)C)OC(=O)CC(C)C	-	-	fluorescence	10 µM
COc1ccc(S(=O)(=O)N(CC(O)CN2C(=O)C(C)(CC(C)C)NC[C@@H]2Cc2ccccc2)CC2CCCC2)cc1	-	-	-	0.13 µM
COC(=O)CCC(=O)NCCCC(C)(C)CN(C[C@@H](O)[C@H](Cc1ccccc1)NC(=O)O[C@H]1CO[C@H]2OCC[C@H]21)S(=O)(=O)c1ccc2c(c1)OCO2	-	-	fluorescence	<0.001 µM
O=S1(=O)N(CC2CC2)[C@H](Cc2ccccc2)CC(O)C[C@@H](Cc2ccccc2)N1CC1CC1	-	-	-	1.5 µM
Cc1ccccc1CNC(=O)[C@H]1N(C(=O)[C@@H](O)[C@H](CCc2ccccc2)NC(=O)OC2C[C@@H]3OCO[C@@H]3C2)CSC1(C)C	-	-	-	0.00065 µM
CC(=O)NCCC(C)(C)CN(C[C@@H](O)[C@H](Cc1ccccc1)NC(=O)O[C@H]1CO[C@H]2OCC[C@H]21)S(=O)(=O)c1ccc2c(c1)OCO2	-	-	fluorescence	<0.001 µM
CCCCCN(C[C@@H](O)[C@H](CCc1ccccc1)NC(=O)[C@H](C)NC(C)=O)S(=O)(=O)c1ccc2ncsc2c1	-	-	-	0.000002 µM
CC(C)C[C@H](NC(=O)CCCCCCCCCCCCCCC(=O)N[C@H](C(=O)N[C@@H](CC(C)C)C(=O)N[C@@H](Cc1ccccc1)C(N)=O)C(C)O)C(=O)N[C@@H](Cc1ccccc1)C(=O)O	-	-	-	0.84 µM
CONC(=O)OCCCCC(C)(C)CN(C[C@@H](O)[C@H](Cc1ccccc1)NC(=O)O[C@H]1CO[C@H]2OCC[C@H]21)S(=O)(=O)c1ccc2c(c1)OCO2	-	-	fluorescence	<0.001 µM
CC(C)(C)OC(=O)N[C@H](Cc1ccc(O)cc1)/C(O)=C(\C#N)c1c(F)c(F)c(F)c(F)c1F	-	-	HPLC	0.64 µM
COc1ccc(S(=O)(=O)N(CC(C)C)C[C@@H](O)[C@H](Cc2ccccc2)NC(=O)OCO[C@H]2C[C@H]3OCC4(CC[C@H](OC)O4)[C@H]3C2)cc1	-	-	substrate cleavage / fluorescence	0.00038 µM
CNC(=O)C1NC[C@H](Cc2ccccc2)N(CC(O)CN(CC2CCCC2)S(=O)(=O)c2ccc(OC)cc2)C1=O	-	-	HPLC	0.6 µM
CC(C)CC(=O)NCCCCCC(C)(C)CN(C[C@@H](O)[C@H](Cc1ccccc1)NC(=O)O[C@H]1CO[C@H]2OCC[C@H]21)S(=O)(=O)c1ccc2c(c1)OCO2	-	-	fluorescence	<0.001 µM
COc1ccc(S(=O)(=O)N(CC(O)CN2C(=O)C3(CCCCC3)NC[C@@H]2Cc2ccccc2)CC2CCCC2)cc1	-	-	-	0.0017 µM
CC(C)NC(=O)NCCCCC(C)(C)CN(C[C@@H](O)[C@H](Cc1ccccc1)NC(=O)O[C@H]1CO[C@H]2OCC[C@H]21)S(=O)(=O)c1cccc2c1OCCO2	-	-	fluorescence	<0.001 µM
CC(C)C[C@H](NC(=O)[C@@H](NC(=O)CCCCCCCCCCCCCCC(=O)N[C@@H](CC(N)=O)C(=O)N[C@@H](Cc1ccccc1)C(=O)O)C(C)O)C(=O)N[C@@H](Cc1ccc(C(=O)c2ccccc2)cc1)C(N)=O	-	-	-	0.495 µM
CC(C)(CCCOC(=O)N1CCOCC1)CN(C[C@@H](O)[C@H](Cc1ccccc1)NC(=O)O[C@H]1CO[C@H]2OCC[C@H]21)S(=O)(=O)c1ccc2c(c1)OCO2	-	-	fluorescence	<0.001 µM
COc1ccc(S(=O)(=O)N(CC(O)CN2C(=O)C(C)(CC(C)C)NC[C@@H]2Cc2ccccc2)CC2CCCC2)cc1	-	-	HPLC	0.13 µM
CC(C)(CCCNS(C)(=O)=O)CN(C[C@@H](O)[C@H](Cc1ccccc1)NC(=O)O[C@H]1CO[C@H]2OCC[C@H]21)S(=O)(=O)c1ccc(N)cc1	-	-	fluorescence	<0.001 µM
CSC[C@H](NC(=O)[C@@H](NOC(C)(C)C)C(C)C)C(=O)N[C@@H](CC(C)C)[C@@H](O)C[C@@H](C)C(=O)N[C@H](C(=O)NCC(C)C)C(C)C	-	-	-	0.0008 µM
CC(C)C[C@H](NC(=O)[C@@H](NC(=O)CCCCCCCCCCCCCCC(=O)N[C@@H](CC(N)=O)C(=O)N[C@@H](Cc1ccccc1)C(=O)O)C(C)O)C(=O)N[C@H](C(N)=O)C1CCCCC1	-	-	-	1.1 µM
O=C(N[C@H]1c2ccccc2C[C@H]1O)[C@H](Cc1ccccc1)C[C@H](O)CN1C(=O)[C@H](Cc2ccccc2)C[C@@H]1Cc1ccccc1	-	-	-	>0.5 µM
Cc1noc2ccc(S(=O)(=O)N(CC(C)C)C[C@@H](O)[C@H](Cc3ccccc3)NC(=O)O[C@H]3CO[C@H]4OCC[C@H]43)cc12	WT	-	fluorescence	<0.0001 µM
CCCOC(=O)NCCC(C)(C)CN(C[C@@H](O)[C@H](Cc1ccccc1)NC(=O)O[C@H]1CO[C@H]2OCC[C@H]21)S(=O)(=O)c1ccc2c(c1)OCO2	-	-	fluorescence	<0.001 µM
O=C(O)COc1ccc(-c2cc(O)c(SCCc3ccccc3)c(=O)o2)cc1	-	-	-	0.051 µM
COc1cccc(S(=O)(=O)N(Cc2cccs2)C[C@@H](O)[C@H](CCc2ccccc2)NC(=O)c2ccc(O)c(O)c2)c1	-	-	-	0.05 µM
Nc1cccc(C(=O)N[C@H](Cc2ccccc2)C[C@H](O)[C@H](Cc2ccccc2)NC(=O)c2cccc(N)c2)c1	-	PR-V821	substrate cleavage	0.096 µM
COC1C[C@@H](C(=O)NC(C)(C)C)N(C(=O)C(=O)C(Cc2ccccc2)NC(=O)OCc2ccccc2)C1.COC1C[C@@H](C(=O)NC(C)(C)C)N(C(=O)C(=O)C(Cc2ccccc2)NC(=O)OCc2ccccc2)C1	-	-	fluorescence	0.22 µM
CC(=O)NCCCC(C)(C)CN(C[C@@H](O)[C@H](Cc1ccccc1)NC(=O)O[C@H]1CO[C@H]2OCC[C@H]21)S(=O)(=O)c1ccc2c(c1)OCO2	-	-	fluorescence	<0.001 µM
COC(=O)CC1NC[C@H](Cc2ccccc2)N(CC(O)CN(CC2CCCC2)S(=O)(=O)c2ccc(OC)cc2)C1=O	-	-	-	>20 µM
CC(C)(CCCCCN=C(N)NC#N)CN(C[C@@H](O)[C@H](Cc1ccccc1)NC(=O)O[C@H]1CO[C@H]2OCC[C@H]21)S(=O)(=O)c1ccc2c(c1)OCO2	-	-	fluorescence	<0.001 µM
CC(C)[C@H](NC(=O)[C@H](C)C[C@H](O)[C@H](Cc1ccccc1)NC(=O)[C@H](C)NC(=O)OCc1ccccc1)C(N)=O	-	-	HPLC	0.05 µM
CCOC(=O)NCC(=O)NCCCCC(C)(C)CN(C[C@@H](O)[C@H](Cc1ccccc1)NC(=O)O[C@H]1CO[C@H]2OCC[C@H]21)S(=O)(=O)c1ccc2c(c1)OCO2	-	-	fluorescence	<0.001 µM
COc1ccc(S(=O)(=O)N(CC(O)CN2C(=O)C(CC(N)=O)C[C@@H]2Cc2ccccc2)CC2CCCC2)cc1	-	-	HPLC	0.03 µM
CCC(=O)O[C@@H](C/C=C(\C)C(=O)OC)C[C@@H](OC(C)=O)[C@H](CCCOC(=O)CC(C)C)OC(=O)CC(C)C	-	-	fluorescence	2.1 µM
CC(C)[C@H](NC(=O)[C@@H](NC(=O)[C@H](C)C[C@H](O)[C@H](Cc1ccccc1)NC(=O)[C@H](C)NC(=O)OCc1ccccc1)C(C)C)C(=O)O	-	-	HPLC	0.002 µM
CC(C)(CCNS(C)(=O)=O)CN(C[C@@H](O)[C@H](Cc1ccccc1)NC(=O)O[C@H]1CO[C@H]2OCC[C@H]21)S(=O)(=O)c1ccc2c(c1)OCO2	-	-	fluorescence	<0.001 µM
COc1ccc(S(=O)(=O)N(CC(O)CN2C(=O)C(Cc3ccccc3)NC[C@@H]2Cc2ccccc2)CC2CCCC2)cc1	-	-	HPLC	>20 µM
CC(C)(C)CC(=O)NCCCCC(C)(C)CN(C[C@@H](O)[C@H](Cc1ccccc1)NC(=O)O[C@H]1CO[C@H]2OCC[C@H]21)S(=O)(=O)c1ccc2c(c1)OCO2	-	-	fluorescence	<0.001 µM
Cc1ccccc1CNC(=O)[C@H]1N(C(=O)[C@@H](O)[C@H](CCc2ccccc2)NC(=O)O[C@@H]2CCOCOC2)CSC1(C)C	-	-	-	0.00078 µM
COC(=O)NCCCCC(C)(C)CN(C[C@@H](O)[C@H](Cc1ccccc1)NC(=O)O[C@H]1CCOC1)S(=O)(=O)c1ccc(N)cc1	-	-	fluorescence	<0.001 µM
CCOC(=O)C(C)NCc1cc2cc(S(=O)(=O)N(CC(C)C)C[C@@H](O)[C@H](Cc3ccccc3)NC(=O)O[C@H]3CO[C@H]4OCC[C@H]43)ccc2o1	WT	-	fluorescence	<0.0001 µM
COC(=O)NCCCCCC(C)(C)CN(C[C@@H](O)[C@H](Cc1ccccc1)NC(=O)O[C@H]1CO[C@H]2OCC[C@H]21)S(=O)(=O)c1ccc2c(c1)OCO2	-	-	fluorescence	<0.001 µM
CC1=N[C@H](CC(C)C)C(=O)N(Cc2ccc(-c3ccccc3)cc2)c2cc(C(=O)OC(C)(C)C)ccc21	-	-	substrate cleavage	>200 µM
CCCNC(=O)NCCC(C)(C)CN(C[C@@H](O)[C@H](Cc1ccccc1)NC(=O)O[C@H]1CO[C@H]2OCC[C@H]21)S(=O)(=O)c1ccc2c(c1)OCO2	-	-	fluorescence	<0.001 µM
CC[C@H](C)CN(C[C@@H](O)[C@H](CCc1ccccc1)NC(=O)c1cccc(O)c1)S(=O)(=O)c1ccc2ncsc2c1	-	-	-	0.000039 µM
CC(C)(CCNC(=O)N1CCCC1)CN(C[C@@H](O)[C@H](Cc1ccccc1)NC(=O)O[C@H]1CO[C@H]2OCC[C@H]21)S(=O)(=O)c1ccc2c(c1)OCO2	-	-	fluorescence	<0.001 µM
CC(C)(C)OC(=O)N1C2C3(CO)C(c4ccccc4)C4(CO)C1C1(CO)C(c5ccccc5)C2(CO)C3N(C(=O)OC(C)(C)C)C41	-	-	absorbance	9.6 µM
CC(C)(CCCCOC(=O)Oc1ccc([N+](=O)[O-])cc1)CN(C[C@@H](O)[C@H](Cc1ccccc1)NC(=O)O[C@H]1CO[C@H]2OCC[C@H]21)S(=O)(=O)c1ccc2c(c1)OCO2	-	-	fluorescence	<0.001 µM
C=CCC1NC[C@H](Cc2ccccc2)N(CC(O)CN(CC2CCCC2)S(=O)(=O)c2ccc(OC)cc2)C1=O	-	-	HPLC	>20 µM

The first 7 rows once more:

compound	strain or isolate	mutations	method	value
CC[C@H](C)[C@@H](C=O)NC(=O)[C@H](CO)NC(=O)[C@H](Cc1ccc(O)cc1)NC(=O)[C@H](CCC(=O)O)NC(=O)[C@H](CC(C)C)NC(=O)[C@@H](N)CC(C)C	-	-	HPLC	0.013 µM
CC[C@H](C)[C@H](NC(=O)[C@@H](C[C@H](O)[C@H](CC1CCCCC1)NC(=O)CC(C)(C)C)C(C)C)C(=O)NCc1ccccn1	-	-	-	0.07 µM
CC(C)C[C@H](NC(=O)CCCCCCCCCCCCCCC(=O)N[C@@H](CC(N)=O)C(=O)N[C@@H](Cc1ccccc1)C(=O)O)C(=O)N[C@@H](CC(C)C)C(=O)N[C@@H](Cc1ccccc1)C(N)=O	-	-	-	0.37 µM
CCC(C)CNC(=O)OCCC(C)(C)CN(C[C@@H](O)[C@H](Cc1ccccc1)NC(=O)O[C@H]1CO[C@H]2OCC[C@H]21)S(=O)(=O)c1ccc2c(c1)OCO2	-	-	fluorescence	<0.001 µM
CCC(=O)O[C@@H](C/C=C(\C)C(=O)OC)C[C@H](OC(C)=O)[C@@H](CCCOC(=O)CC(C)C)OC(=O)CC(C)C	-	-	fluorescence	3.6 µM
CC(C)CN(C[C@@H](O)[C@H](Cc1ccccc1)NC(=O)O[C@H]1CO[C@H]2OCC[C@H]21)S(=O)(=O)c1ccc(C(=O)O)cc1	-	-	substrate cleavage / fluorescence	0.0000129 µM
COC(=O)[C@@H](NC(=O)[C@@H](NC(=O)[C@H](C)C[C@H](O)[C@H](Cc1ccccc1)NC(=O)[C@H](C)NC(=O)[C@H](C)NC(=O)OCc1ccccc1)C(C)C)C(C)C	-	-	HPLC	0.0007 µM